From PubChem BioAssay AID565 (University of Pittsburgh Molecular Library Screening Center, 2006) come the findings set out here.

This is a selection; strong and weak results do not stand in their true shares. Activity calls are given as the source filed them. No stated cut-off is given here; in the data, active means inhibition above about 50%; inactive means the rest.

The experiment has as its target Gag-Pol polyprotein (Human immunodeficiency virus type 1 group M subtype B (isolate HXB2)) (UniProt P04585). The experiment in a line: blockers of HIV-1 RNase H RNA/DNA cleavage – biochemical, fluorescence, primary screen (AID 565). The note with it: RT-RNase H RNA/DNA duplex cleavage, at 10 µM, stronger effect = higher value.
For `Cc1nc2ccc3ccccc3c2o1.O=[N+]([O-])c1cc([N+](=O)[O-])c(O)c([N+](=O)[O-])c1`, the inhibition is inactive: 2.95%.
With `COc1ccccc1OP(C)(=O)Nc1ccc(C)c(C)c1` (stereo not drawn) the figure was inactive: 2.05%.
With `CP(=O)(Nc1ccccn1)Oc1ccccc1` (stereo not drawn) the figure was inactive: -9%; with `CP(=O)(Oc1ccccc1)N1CCOC1=O` (stereo not drawn), inactive: 0.9%.
As for `COc1ccccc1OP(C)(=O)Nc1c(C)n(C)n(-c2ccccc2)c1=O` (stereo not drawn), the inhibition was inactive: -7.01%.
With `CCN(CC)CC(O)COC(=O)C(O)(c1ccccc1)C1CCCCC1` (stereo not drawn) the figure was inactive: -13.6%.
With `CN(C)CCOC(=O)C(O)(c1ccccc1)C1CCCCC1` (stereo not drawn) the figure was inactive: -0.22%; with `Cc1ccccc1NP(C)(=O)Nc1ccccc1C`, inactive: -13.6%.
`CP(=O)(Nc1ccc2c(c1)OCCO2)Oc1ccccc1` (stereo not drawn): the inhibition was inactive: -52.3%.
Turning to `CCOP(C)(=S)SCC(=O)NC(C)(CC)C(=O)O` (stereo not drawn), the inhibition was inactive: 4.84%.
With `CP(=O)(Nc1ccccc1F)Oc1ccccc1` (stereo not drawn) the figure was inactive: -27.8%; with `Cc1ccc(C)c(NP(C)(=O)Oc2ccccc2)c1` (stereo not drawn), inactive: -65.7%; with `Cc1nc2ccc3ccccc3c2s1.O=[N+]([O-])c1cc([N+](=O)[O-])c(O)c([N+](=O)[O-])c1`, inactive: -30.4%.
As for `CP(=S)(Nn1cnnc1)Oc1ccccc1` (stereo not drawn), the inhibition was inactive: -2.26%.
With `CCOP(C)(=S)SCC(=O)NC(C)C(=O)O` (stereo not drawn) the figure was inactive: 1.87%; with `CP(=O)(NC(=O)Nc1ccccc1)Oc1ccccc1` (stereo not drawn), inactive: -12.2%.
As for `Cc1ccc(NP(C)(=O)Oc2ccccc2)c(C)c1` (stereo not drawn), the inhibition was inactive: -42.1%.
Regarding `COc1ccccc1OP(C)(=O)Nc1ccc(C)cc1` (stereo not drawn), the inhibition was inactive: -6.41%.
